{
  "source": "patent US20070072177A1",
  "about": "(CRUCELL HOLLAND B V, published 2007)",
  "binders": {"B1": {"name": "SC04-125 (scFv)", "scFv": "AMAQVQLVESGGGVVQPGRSLRLSCAASGFTFSSYGMHWVRQAPGKGLEWVAVISYDGSDKYYADSVKGRFTISRDNSKNTLYLQMNSLRAEDTAVYYCAKIATAGTGFDYWGQGTLVTVSSGTGGSGGTGSGTGGSTDIQMTQSPSSVSASVGDRVTITCRASQGISSYLAWYQQKPGKAPKLLIYDASSLESGVPSRFSGSGSGTEFTLTISSLQPDDFATYYCQQLNSYPLTFGGGTKVEIKRAAA"}, "B2": {"name": "SC04-126 (scFv)", "scFv": "AMAQVTLKESGPTLVNPTQTLTLTCTFSGFSLSTGGVGVGWFRQPPGKALEWLARIDWDDDKYYSTSLKTRLTISKDTSKIQVVLTMTNMDPVDTATYYCARMGFTGTYFDYWGQGTLVTVSSGTGGSGGTGSGTGGSTQSVLTQPPSVSVAPGKTARITCGGNNIGSKSVHWYQQKPGQAPVLVIYYDSDRPSGIPERFSGSNSGNTATLTISRVEAGDEADYYCQVWDSSSDHPYVFGTGTKLTVLGAAA"}, "B3": {"name": "SC04-140 (scFv)", "scFv": "AMAQMQLVQSGGGVVQPGRSLRLSCAASGFTFSSYGMHWVRQAPGKGLEWVAVILYDGSNKYYADSVKGRFTISRDNSKNALYLQMNSLRAEDTAVYYCAKVTNPGDAFDIWGQGTMVTVSSGTGGSGGTGSGTGGSTDIQMTQSPSSLSASVGDRVTITCRASQGISSALAWYQQKPGKAPKLLIYDASSLESGVPSRFSGSGSGTDFTLTISSLQPEDFATYYCQQFNSYPLTFGGGTKVEIKRAAA"}, "B4": {"name": "SC04-144 (scFv)", "scFv": "AMAQVQLQELGGGVVQPGRSLRLSCAASGFTFGSYGMHWVRQAPGKGLEWVATISYDGSIKDYADSEKGRFTISRDNSKNTLYLQMNSLRAEDTAVYYCAKGGKTGEFDYWGQGTLVTVSSGTGGSGGTGSGTGGSTDIQLTQSPSSLSASVGDRVTITCRASQGISSYLAWYQQKPGKGPKLLIYAASTLQSGVPSRFSGSGSGTDFSLTISSLQPEDLATYYCQQYDSYPLTFGGGTKVEIKRAAA"}, "B5": {"name": "SC04-146 (scFv)", "scFv": "AMAEVQLVQSGGGVVQPGRSLRLSCAASGFTFSSYGMHWVRQAPGKGLEWVATISYDGSIKDYADSEEGRFTISRDNSKNTLYLQMNSLRAEDTAVYYCAKGGKTGEFDYWGQGTLVTVSSGTGGSGGTGSGTGGSTDVVMTQSPATLSVSPGESATLFCRASESVYSNLAWYQHKPGRAPRLLIYGASTRATGIPARFDGTGSGTDFTLTISSLQSEDFAVYYCQQYNDWPITFGQGTRLEIKRAAA"}, "B6": {"name": "CR04-098 (antibody, V domains shown)", "VH": "QVQLVESGGGAVQPGRSLRLSCAASGFTFSSYGMHWVRQAPGKGLEWVAVILYDGSDKFYADSVKGRFTISRDNSKNTLYLQMNSLRAEDTAVYYCAKVAVAGTHFDYWGQGTLVTVSS", "VL": "DIQMTQSPSSLSASVGDRVTITCRASQGIRNDLGWYQQKPGKAPKLLIYAASSLQSGVPSRFSGSGSGTDFTLTISSLQPEDFATYYCQQLNSYPPTFGGGTKVEIKT"}},
  "data": [
    {"biological_target": "T1, glycoprotein of rabies virus strain CVS-11 (rabies virus strain CVS-11, UniProt O92284 20-524)", "T1 sequence": "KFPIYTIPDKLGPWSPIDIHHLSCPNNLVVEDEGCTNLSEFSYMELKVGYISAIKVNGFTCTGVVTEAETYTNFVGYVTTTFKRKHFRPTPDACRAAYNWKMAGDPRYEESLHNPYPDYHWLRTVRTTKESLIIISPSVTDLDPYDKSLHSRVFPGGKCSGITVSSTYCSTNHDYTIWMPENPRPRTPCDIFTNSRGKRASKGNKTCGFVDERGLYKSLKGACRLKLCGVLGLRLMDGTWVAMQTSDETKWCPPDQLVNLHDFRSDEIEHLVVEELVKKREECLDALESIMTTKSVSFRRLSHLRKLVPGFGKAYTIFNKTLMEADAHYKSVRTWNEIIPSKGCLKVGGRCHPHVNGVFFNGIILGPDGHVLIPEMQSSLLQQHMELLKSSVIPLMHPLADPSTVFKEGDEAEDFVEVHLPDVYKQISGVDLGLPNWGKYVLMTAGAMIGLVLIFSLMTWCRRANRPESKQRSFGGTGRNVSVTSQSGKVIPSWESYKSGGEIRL", "test": "cell-based or functional assay", "units": {"50% endpoint dilution": "dilution"}, "values": [
      {"binder": "B1", "50% endpoint dilution": 405},
      {"binder": "B2", "50% endpoint dilution": 10},
      {"binder": "B3", "50% endpoint dilution": 135},
      {"binder": "B4", "50% endpoint dilution": 810},
      {"binder": "B5", "50% endpoint dilution": 405}
    ]},
    {"biological_target": "T2, rabies virus glycoprotein (G protein) of strain CVS-11 (rabies virus strain CVS-11, UniProt O92284 20-524)", "T2 sequence": "T1 sequence", "test": "cell-based or functional assay", "units": {"Neutralizing potency (modified RFFIT)": "IU/mg"}, "values": [
      {"binder": "B6", "Neutralizing potency (modified RFFIT)": 7320}
    ]},
    {"biological_target": "5% FBS preparation", "test": "phage ELISA on coated 5% FBS, anti-M13-HRP", "units": {"OD 492 nm": "OD 492 nm"}, "values": [
      {"binder": "B1", "OD 492 nm": 0.049},
      {"binder": "B2", "OD 492 nm": 0.051},
      {"binder": "B3", "OD 492 nm": 0.057},
      {"binder": "B4", "OD 492 nm": 0.054},
      {"binder": "B5", "OD 492 nm": 0.057}
    ]}
  ]
}
